Results taken from patent US20220363736A1 (ICAHN SCHOOL OF MEDICINE AT MOUNT SINAI, published 2022).

B1: monoclonal antibody 4B2 (hybridoma-produced, murine IgG2a) (antibody, V domains shown)
VH: QIQLVQSGPELKKPGETVKISCKASGFTFTDYPMHWVKQAPGKSLKWMGWINTETEEPTYSDDFKGRSPLSLETSASTTYLQINNLKNEDTSTYFCVRSGYYYGSTYAWFGYWGQGTLVTVSA
VL: DVVMTQIPLSLPVSLGDQASISCRSSQSLIHTNGDTFLHWYLQKPGQSPKLLIYKVSNRFSGVPDRFTGGGSGTDFTLKISRVEAEDLGIYFCSQSALFPYTFGGGTNLEIK
B2: monoclonal antibody 4F11 (hybridoma-produced, murine IgG2b) (antibody, V domains shown)
VH: DVKLVESGGDLVKPGGSLKLSCAASGFTFSAYSMSWVRQTPERRLEWVATINTGGSFTYYPDSVKGRFTISRDNAKNTLYLQMSSLKSEDTAMYFCTRVSDYGNSAYFPYWGQGTLVIVFA
VL: QVVLTQSPALISASPGEKVTMTCSASSNVNYMSWYQQRPRSSPKPWIYLTSKLASGVPPRFSGSGSGTSYSLTISSMEAEDVATYYCQQWSSDPQTFGGGTKVEIK
B3: monoclonal antibody 1F4 (hybridoma-produced, murine IgG2a) (antibody, V domains shown)
VH: QVHLQQSGSELRSPGSSVKLSCKDFDSEVFPIVYMRWIRQKPGHGFEWIGDILPSFGRTIYGEKFEDKATLDADTVSNTAYLELNSLTSEDSAIYYCARGDHGNWLAYWGQGTLVTVSA
VL: DIVMTQSHKFMSTSVGDRVTITCKASQDVSTNVAWYQQKPGQSPKLLIYWASTRHTGVPNRFTGIISGTDYTLTISSVQAEDRALYYCQQHYSAPWTFGGGTKLEIK
B4: monoclonal antibody 3G1 (hybridoma-produced, murine IgG2a) (antibody, V domains shown)
VH: QVQLQQSGAELMKPGASVKISCKATGYKFTSYWIGWVKQRPGHGLEWCGEIFPGSGSINYNEKFKGKATFTADTSSNTAYLQLTSLTSEDSAVYYCARGEDYYGSSYGAMDYWGQGTSLTVSS
VL: DVQITQSPSYLAASPGETITINCRASKSISKYVAWYQEKPGRTNKVLIYSGSILSFGNPSRFSGSGSGTDFTLTISSLEPEDFAMYYCQQHNEYPWTFGGGTKLEIK

biological target: recombinant neuraminidase (rNA) from B/Malaysia/2506/04 (influenza B virus B/Malaysia/2506/04); assay: biolayer interferometry (Octet Red96), […]

Binder	Kd [nM]	koff [s⁻¹]
B1	1.75	0.000364
B2	0.152	3.76e-05
B3	0.819	4.25e-05
B4	0.532	0.000255
